Article PMC7913695, “Mechanism of DNA cleavage by the endonuclease SauUSI: a major barrier to horizontal gene transfer and antibiotic resistance in Staphylococcus aureus”

Target: T1, SauUSI (Staphylococcus aureus) (UniProt Q2FVC3)
T1 sequence (looked up, limits assumed): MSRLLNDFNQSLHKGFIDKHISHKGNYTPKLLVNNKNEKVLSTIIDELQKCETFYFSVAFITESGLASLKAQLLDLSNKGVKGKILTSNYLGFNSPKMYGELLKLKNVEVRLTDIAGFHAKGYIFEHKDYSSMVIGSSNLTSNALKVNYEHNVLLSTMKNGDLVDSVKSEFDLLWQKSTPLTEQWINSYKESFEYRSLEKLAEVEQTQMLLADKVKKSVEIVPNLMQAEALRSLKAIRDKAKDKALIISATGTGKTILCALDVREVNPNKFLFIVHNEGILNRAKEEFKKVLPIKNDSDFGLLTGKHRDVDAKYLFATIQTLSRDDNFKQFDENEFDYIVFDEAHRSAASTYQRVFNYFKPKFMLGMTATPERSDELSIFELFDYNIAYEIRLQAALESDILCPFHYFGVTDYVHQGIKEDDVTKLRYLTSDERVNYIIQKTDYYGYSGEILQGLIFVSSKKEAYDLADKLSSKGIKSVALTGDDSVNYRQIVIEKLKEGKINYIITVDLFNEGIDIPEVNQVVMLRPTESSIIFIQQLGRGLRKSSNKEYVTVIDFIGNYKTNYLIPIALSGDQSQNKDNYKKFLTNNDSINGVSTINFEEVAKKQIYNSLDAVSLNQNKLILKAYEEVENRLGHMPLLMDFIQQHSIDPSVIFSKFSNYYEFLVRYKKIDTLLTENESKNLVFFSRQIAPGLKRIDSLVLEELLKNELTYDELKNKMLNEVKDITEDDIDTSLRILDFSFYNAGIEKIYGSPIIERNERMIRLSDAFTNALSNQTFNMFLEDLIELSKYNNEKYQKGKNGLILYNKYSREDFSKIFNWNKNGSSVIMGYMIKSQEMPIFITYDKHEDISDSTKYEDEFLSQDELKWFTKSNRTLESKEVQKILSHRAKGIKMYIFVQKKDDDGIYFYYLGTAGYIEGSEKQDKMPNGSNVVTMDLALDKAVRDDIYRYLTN
Assay: EMSA
Settings: 250 nM DNA, shift first detected at 0.8 uM SauUSI (0.05-1.6 uM tested); Protein and DNA incubated 20 min on ice; 5% native PAGE, ethidium bromide stain; binding buffer, salt and pH not stated; recombinant protein; protein details: His-tag (HisTrap purified)

## GCCGCGGATCCTTCACAAGACGATTACCGGCGCTGAAAGACCAGCATATGCAATTTGACT (double strand) [EMSA non-methylated 60 bp (non-specific DNA)]
  binding result: binds more weakly

The comparison behind a weaker result is the experiment's own reference, which may not be listed here. Where a protein sequence is shown, tags need not be part of it.
